Measured values from several laboratories, pooled; numbers as filed in NIAID ChemDB.

Common to all: growth or infection tests; agent: Hepatitis B virus; endpoint: inhibition

Two numbers with a dash give a range or band. Inhibition is in % at the dose shown (toxicity tests: loss of growth or viability). Conditions beyond the fields shown may differ between rows.

CNC(=O)[C@]1(C)CC[C@]2(C)CC[C@]3(C)C4=CC=C5C(=CC(=O)C(O)=C5C)[C@]4(C)CC[C@@]3(C)[C@@H]2C1 ; tested at: 25 µM ; read by: PCR ; cells: HepG2 2.2.15 ; value: 13.2%
CCCCCCOC(=O)CC1COP(=O)(CO[C@H](C)Cn2cnc3c(N)ncnc32)OC1 ; tested at: 1 µM ; read by: PCR ; cells: HepaRG ; strain: Genotype D ; value: 30–50%
O=c1[nH]c(=O)n([C@H]2C[C@H](F)[C@@H](CO)O2)cc1I ; tested at: 10 µg/mL ; value: 60%
CCN(CC)CCOc1ccc2nc(SCc3ccccc3)n(Cc3ccco3)c(=O)c2c1 ; tested at: 0.8 µM ; read by: PCR ; cells: HepG2 2.2.15 ; value: 67.45%
C[C@@H]1CC[C@@]2(OC1)O[C@H]1C[C@H]3[C@@H]4CC=C5C[C@@H](O[C@@H]6O[C@H](CO)[C@H](O[C@@H]7O[C@@H](C)[C@H](O)[C@@H](O)[C@H]7O)[C@@H](O)[C@H]6O[C@@H]6O[C@@H](C)[C@H](O)[C@@H](O)[C@H]6O)CC[C@]5(C)[C@H]4CC[C@]3(C)[C@H]1[C@@H]2C ; tested at: 35 µM ; read by: ELISA / antigen ; cells: HepG2 2.2.15 ; value: 40%
CCOC(=O)CC1COP(=O)(CO[C@H](C)Cn2cnc3c(NC(=O)CC(C)C)ncnc32)OC1 ; tested at: 1 µM ; read by: PCR ; cells: PHH ; strain: Genotype D ; value: ≤30%
CC1=C(O)C(=O)C=C2C1=CC=C1[C@@]2(C)CC[C@@]2(C)[C@@H]3C[C@](C)(C(=O)NC(C)C)CC[C@]3(C)CC[C@]12C ; tested at: 25 µM ; read by: PCR ; cells: HepG2 2.2.15 ; value: 35.2%
CCCCCCC(=O)CCCCCC/C=C/CC(O)C(O)C(N)(CO)C(=O)O ; tested at: 20 µM ; value: 80%
CCOC(=O)CC1COP(=O)(CO[C@H](C)Cn2cnc3c(N)ncnc32)OC1 ; tested at: 1 µM ; read by: PCR ; cells: PHH ; strain: Genotype D ; value: ≤30%
Nc1nc(=O)n([C@@H]2C=C[C@H](CO)O2)cc1F ; tested at: 0.001 µM ; cells: HepG2 ; strain: WILD TYPE ; value: 58%
Nc1ccn([C@@H]2CS[C@H](CO)O2)c(=O)n1 ; tested at: 25 µM ; read by: PCR ; cells: HepG2 2.2.15 ; value: 89.1%
Nc1ccn([C@@H]2CS[C@H](CO)O2)c(=O)n1 ; tested at: 1 µM ; read by: PCR ; cells: HepG2 2.2.15 ; value: 0.26%
CC(C)OC(=O)CC1COP(=O)(CO[C@H](C)Cn2cnc3c(NC(=O)c4ccccc4)ncnc32)OC1 ; tested at: 1 µM ; read by: PCR ; cells: HepaRG ; strain: Genotype D ; value: ≤30%
Cc1cn([C@H]2O[C@@H](CO)[C@H](O)[C@H]2F)c(=O)[nH]c1=O ; tested at: 0.02 µM ; cells: HepG2 ; strain: WILD TYPE ; value: 54%
CCOC(=O)CCC1COP(=O)(CO[C@H](C)Cn2cnc3c(N)ncnc32)OC1 ; tested at: 1 µM ; read by: PCR ; cells: HepaRG ; strain: Genotype D ; value: 50–80%
CC1=C(O)C(=O)C=C2C1=CC=C1[C@@]2(C)CC[C@@]2(C)[C@@H]3C[C@](C)(C(=O)N(C)C)CC[C@]3(C)CC[C@]12C ; tested at: 25 µM ; read by: PCR ; cells: HepG2 2.2.15 ; value: 48.5%
CCC(CCC(C)C1CCC2C3C[C@@H](O)[C@@]4(O)C[C@@H](O)CCC4(C)C3CCC12C)C(C)C ; tested at: 25 µg/mL ; read by: antigen ; cells: HepG2 2.2.15 ; value: 26.9%
CC1=C(O)C(=O)C=C2C1=CC=C1[C@@]2(C)CC[C@@]2(C)[C@@H]3C[C@](C)(C(=O)N4CCCC4)CC[C@]3(C)CC[C@]12C ; tested at: 25 µM ; read by: PCR ; cells: HepG2 2.2.15 ; value: 25.9%
Nc1nc(=O)n([C@@H]2CS[C@H](CO)O2)cc1F ; tested at: 0.3 µM ; cells: HepAD38 ; value: 90%
Nc1ccn([C@@H]2CS[C@H](CO)O2)c(=O)n1 ; tested at: 100 µg/mL ; read by: ELISA ; cells: HepG2.2.15 ; value: 33.56%
CC(C)OC(=O)CCC1COP(=O)(CO[C@H](C)Cn2cnc3c(NC(=O)c4ccccc4)ncnc32)OC1 ; tested at: 1 µM ; read by: PCR ; cells: PHH ; strain: Genotype D ; value: 50–80%

2 of the rows above, restated:

CC1=C(O)C(=O)C=C2C1=CC=C1[C@@]2(C)CC[C@@]2(C)[C@@H]3C[C@](C)(C(=O)N(C)C)CC[C@]3(C)CC[C@]12C ; tested at: 25 µM ; read by: PCR ; cells: HepG2 2.2.15 ; value: 48.5%
Nc1ccn([C@@H]2CS[C@H](CO)O2)c(=O)n1 ; tested at: 1 µM ; read by: PCR ; cells: HepG2 2.2.15 ; value: 0.26%